Legend:
HT29 cell line = experiment: Photocytotoxicity (PDT), MTT assay; assay type: cell-based
Description: (§1) Cell lines and culture conditions: A549, HT29, MCF-7, MDA-MB-231 cell lines were maintained in RPMI1640 supplemented with fetal bovine serum (10%) and penicillin-streptomycin solution (1%), and WI38 cells were maintained in DMEM supplemented with fetal bovine serum (10%) and penicillin-streptomycin solution (1%). Approximately 1×10^4 (for A549, HT29, MCF-7, MDA-MB-231) or 1.5×10^4 (for WI38) cells per well were seeded in 96-well plate and incubated overnight light at 37° C. in a humidified atmosphere with 5% CO2.
(§2) Photocytotoxicity: Cells were incubated with different concentrations of photosensitive drug for 1 h in the dark, then the medium in the well was sucked by a syringe, and washed by PBS. Then a solution of new medium was added, and illuminated by light. After irradiation, the cells were incubated under dark at 37° C. for another 24 h, and the cell viabilities were determined by MTT assay.

A549 cell line = experiment: Photocytotoxicity (PDT), MTT assay; assay type: cell-based
Description: as §1, §2

CCCNc1cc2[s+]c3cc(N(CC)CC)ccc3nc2c2ccc(C)nc12.[Cl-] [Compound 14, 9-(diethylamino)-3-methyl-5-(propylamino)pyrido[3,2-a]phenothiazin-7-ium chloride]
Ratio of DK/PDT (HT29 cell line): 53.8
Ratio of DK/PDT (A549 cell line): 9.1
